PubChem BioAssay AID624099, ICCB-Longwood, 2012

Screen: 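Host factors E2 relies on to silence an HPV18 LCR reporter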 (primary screen)
System: human C33A cervical carcinoma cells (HPV-negative) stably expressing BPV1 E2 and an HPV18 LCR luciferase reporter
Reagent: siRNA pool against human genes, 40 nM
Time to read-out: 72 h
Measurement: 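HPV18 LCR reporter light per well, converted to plate-wise z-scores that exclude control wells, and averaged over triplicate plates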
Reading the numbers: mean z-score and z-score: higher = stronger reporter signal, weaker E2 silencing
Call rule: 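Mean z ≥ 2 together with z ≥ 2 in two or more of the three replicates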
The whole screen tested about 21,000 reagents; shown is an unselected part. Of all reagents, 497 (2.4%) were called active. 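Higher z means weaker E2 silencing; only reporter increases were scored, and knock-downs that hurt cell survival may mask genuine repressor factors.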 Unmarked entries are inactive. No sequences are given here.

gene | mean z-score | z-score, replicate A | z-score, replicate B | z-score, replicate C
GPR37L1 (G protein-coupled receptor 37 like 1) | -0.19 | -0.29 | -0.21 | -0.06
UBC (ubiquitin C) | -2.48 | -1.96 | -2.8 | -2.68
LINC00626 (long independently transcribed non-coding RNA 626) | 0.68 | 0.47 | 0.87 | 0.72
EGFR (epidermal growth factor receptor) | 1.23 | 1.74 | 0.76 | 1.19
EIF4ENIF1 | -0.66 | -0.7 | -0.67 | -0.59
INSM1 (INSM transcriptional repressor 1) | -1.52 | -1.25 | -1.61 | -1.7
TAF7 (TATA-box binding protein associated factor 7) | -0.61 | -0.64 | -0.55 | -0.64
SLC10A4 | -1.13 | -0.99 | -1.46 | -0.95
RAB28 (RAB28, member RAS oncogene family) | -0.44 | -0.59 | -0.36 | -0.38
HES2 (hes family bHLH transcription factor 2) | 0.66 | 0.49 | 0.72 | 0.76
H2AC18 (H2A clustered histone 18) | -1.38 | -1.73 | -1.14 | -1.27
GFI1B (growth factor independent 1B transcriptional repressor) | 0.08 | 0.31 | 0.19 | -0.25
SLC25A2 | 0.52 | 0.64 | 0.42 | 0.51
CRTC2 (CREB regulated transcription coactivator 2) | 0.28 | 0.55 | 0.14 | 0.16
CCDC9B (coiled-coil domain containing 9B) | -0.99 | -0.49 | -1.12 | -1.35
JAKMIP1 (janus kinase and microtubule interacting protein 1) | -0.6 | -0.53 | -0.9 | -0.36
SLC24A5 | -1.33 | -1.19 | -1.58 | -1.22
PSG8-AS1 (PSG8 antisense RNA 1) | -0.16 | 0.08 | -0.54 | -0.03
SYNM (synemin) | 1.21 | 0.73 | 0.99 | 1.89
PROX1 (prospero homeobox 1) | -0.43 | -0.43 | -0.19 | -0.68
GBGT1 | 1.16 | 1.39 | 1.06 | 1.04
CFAP53 (cilia and flagella associated protein 53) | -0.19 | -0.09 | -0.32 | -0.16
MVB12A (multivesicular body subunit 12A) | 0.51 | 0.37 | 0.62 | 0.53
FRYL (FRY like transcription coactivator) | -0.77 | -0.85 | -0.84 | -0.64
UBD (ubiquitin like modifier D) | -0.51 | -0.2 | -0.61 | -0.72

An excerpt from above, limited to “mean z-score”.
UBC (ubiquitin C) = -2.48
LINC00626 (long independently transcribed non-coding RNA 626) = 0.68
EGFR (epidermal growth factor receptor) = 1.23
EIF4ENIF1 = -0.66
INSM1 (INSM transcriptional repressor 1) = -1.52
TAF7 (TATA-box binding protein associated factor 7) = -0.61
SLC10A4 = -1.13

Additional records follow:
gene | mean z-score | z-score, replicate A | z-score, replicate B | z-score, replicate C
CRLF3 (cytokine receptor like factor 3) | -0.11 | -0.19 | -0.08 | -0.05
RAB13 (RAB13, member RAS oncogene family) | 0.14 | 0.29 | 0.01 | 0.13
MYH3 (myosin heavy chain 3) | 1.28 | 1.37 | 1.18 | 1.29
TRIM51 (tripartite motif-containing 51) | -1.2 | -1.25 | -1.03 | -1.32
GC (GC vitamin D binding protein) | 0.04 | -0.12 | -0.22 | 0.45
CDKAL1 (CDKAL1 threonylcarbamoyladenosine tRNA methylthiotransferase) | -0.65 | -0.7 | -0.61 | -0.64
ZNF416 (zinc finger protein 416) | -0.32 | 0 | -0.36 | -0.59
LOC402434 (retired record) | -0.43 | -0.41 | -0.27 | -0.6
MRPS24 (mitochondrial ribosomal protein S24) | -0.36 | -0.31 | -0.51 | -0.27
SUZ12 (SUZ12 polycomb repressive complex 2 subunit) | 0.49 | 0.47 | 0.54 | 0.45
C5orf15 (chromosome 5 open reading frame 15) | -0.13 | -0.32 | -0.32 | 0.26
RNF24 (ring finger protein 24) | -0.14 | -0.19 | -0.31 | 0.07
SHOC2 (SHOC2 leucine rich repeat scaffold protein) | 0.37 | 0.23 | 0.52 | 0.37
LOC387894 (retired record) | 0.13 | 0.01 | 0.43 | -0.05
GOT1 (glutamic-oxaloacetic transaminase 1) | 0.7 | 0.54 | 0.79 | 0.76
RIC1 (RIC1 partner of RAB6A GEF complex) | 0.32 | 0.05 | 0.23 | 0.69
MPL (MPL proto-oncogene, thrombopoietin receptor) | 0.62 | 0.44 | 0.71 | 0.71
CLEC18A (C-type lectin domain family 18 member A) | 1.12 | 1 | 1.19 | 1.18
PRKD1 (protein kinase D1) | -0.47 | -0.97 | -0.35 | -0.1
RBMY1D (RNA binding motif protein Y-linked family 1 member D) | -0.37 | -0.8 | 0 | -0.3
THAP4 (THAP domain containing 4) | 1 | 0.77 | 1.44 | 0.8
BARX2 (BARX homeobox 2) | 0.87 | 0.71 | 0.87 | 1.02
RIMBP2 (RIMS binding protein 2) | -0.61 | -0.63 | -0.78 | -0.41
PTCD2 (pentatricopeptide repeat domain 2) | -2.08 | -2.17 | -2.25 | -1.8
KDM4E (lysine demethylase 4E) | -0.53 | -0.6 | -0.66 | -0.33
CCDC3 (coiled-coil domain containing 3) | -0.41 | -0.36 | -0.43 | -0.43
USP15 (ubiquitin specific peptidase 15) | -0.09 | -0.16 | -0.15 | 0.05
ELP1 (elongator acetyltransferase complex subunit 1) | -0.48 | -0.67 | -0.11 | -0.68
SNX22 (sorting nexin 22) | -0.03 | 0.23 | -0.22 | -0.09
SMN1 (survival of motor neuron 1, telomeric) | -0.34 | -0.81 | 0.05 | -0.26
FKBP5 (FKBP prolyl isomerase 5) | -0.34 | -0.12 | -0.45 | -0.45
MYL5 (myosin light chain 5) | -0.01 | 0.38 | 0.06 | -0.48
RPS27AP17 (RPS27A pseudogene 17) | -0.25 | 0.04 | -0.12 | -0.66
LOC645733 (retired record) | 0.05 | -0.09 | 0.14 | 0.09
HSD3B2 | -1.5 | -1.68 | -1.35 | -1.46
TAS2R43 (taste 2 receptor member 43) | -0.67 | -0.4 | -0.77 | -0.85
CDON (cell adhesion associated, oncogene regulated) | -0.95 | -1.09 | -0.92 | -0.85
ATXN1L (ataxin 1 like) | -0.05 | -0.41 | -0.07 | 0.32
AMMECR1L (AMMECR1 like) | -1.83 | -2.14 | -1.69 | -1.65
ATP13A2 (ATPase cation transporting 13A2) | 1.69 | 1.7 | 1.68 | 1.68
SCFD1 (sec1 family domain containing 1) | 0.16 | 0.05 | 0.14 | 0.29
HPCA (hippocalcin) | -0.74 | -0.6 | -0.45 | -1.18
BDH2P1 (3-hydroxybutyrate dehydrogenase 2, pseudogene 1) | -0.83 | -0.94 | -0.77 | -0.76
OR10G3 (olfactory receptor family 10 subfamily G member 3) | 3.25 (active) | 2.82 | 3.89 | 3.05
DCP2 (decapping mRNA 2) | 0.94 | 1.31 | 0.46 | 1.06
GTF3C4 (general transcription factor IIIC subunit 4) | 0.28 | 0.01 | 0.46 | 0.36
CADPS (calcium dependent secretion activator) | -1 | -1.13 | -0.94 | -0.92
HEMGN (hemogen) | 0.79 | 1.12 | 0.85 | 0.39
